Results of unrelated studies side by side (data: NIAID ChemDB).

All rows: growth or infection tests; organism: HIV-1

Lines come from different laboratories, so protocols vary. ECn: concentration that inhibits the pathogen or its effect by n%. An empty or dashed field is not shown.

compound | mutations | strain | setting | cells | method | endpoint | result
Nc1nc2c(ncn2CC2(OCP(=O)(O)O)CC2)c(=O)[nH]1 | - | NL4-3 | - | HT4 + HeLa | plaque count | EC50 | ~100 µM
Nc1ccn([C@H]2CC[C@@H](CO)O2)c(=O)n1 | - | HXB2 | - | CEM | syncytia | EC50 | 0.01 µg/mL
O[C@H]1[C@H](O)[C@@H](O)CN2CC[C@H](O)[C@H]12 | - | NDK | - | MOLT-4 | cytopathic effect | EC50 | 5.5 µg/mL
Cc1cn([C@H]2C[C@H](N=[N+]=[N-])[C@@H](CO)O2)c(=O)[nH]c1=O | - | IIIB | - | C8166 | antigen | EC50 | <0.08 µg/mL
CN(CCc1nc(C(=O)NCc2ccc(F)cc2)c(O)c(=O)[nH]1)Cc1ccccc1 | - | IIIB | 50% human serum | MT-4 | p24 | EC95 | >10 µM
COC(=O)[C@H](CCSC)NC(=O)CNC(=O)COc1ccc2ccccc2c1 | - | IIIB | - | MT-4 | cytopathic effect / MTT | EC50 | >100 µg/mL
CC(C)(C)C(=O)SCCOP(=O)(COCCn1cnc2c(N)ncnc21)OCCSC(=O)C(C)(C)C | - | - | - | MT-4 | - | EC50 | 0.67 µM
Cc1cn([C@H]2C[C@H](N=[N+]=[N-])[C@@H](CO)O2)c(=O)[nH]c1=O | - | HXB2 | - | PBMC | p24 | EC50 | 0.002 µM
CN(C)Cc1nc(C(=O)NCc2ccc(F)cc2)c(O)c(=O)[nH]1 | - | IIIB | 50% human serum | MT-4 | p24 | EC95 | >1 µM
c1cc(CN2CCCNCCNCCCNCC2)ccc1CN1CCCNCCNCCCNCC1 | - | NL4-3 | - | MT-4 | p24 | EC50 | 0.003 µg/mL
Cc1cn([C@H]2C[C@H](N=[N+]=[N-])[C@@H](CO)O2)c(=O)[nH]c1=O | - | 92UG024 | - | TZM-bl | luciferase / luminescence | EC50 | 0.00818 µM
CCc1c(Cc2ccccc2)nc(OC)[nH]c1=O | - | IIIB | - | MT-4 | MTT / virus yield | EC90 | 157 µM
Cc1cc(C#Cc2ccccc2N)cc(C)c1Oc1ccnc(Nc2ccc(C#N)cc2)n1 | E138K | IIIB | - | MT-4 | MTT | EC50 | 0.8 µM
CC(C)(C)OC(=O)[C@@H]1CCCN1C[C@H](O)[C@H](Cc1ccccc1)NC(=O)[C@H](CC(N)=O)NC(=O)OCc1ccccc1 | - | RF | - | C8166 | p24 | EC50 | 5 µg/mL
CC(C)=CCN1Cc2cc(Cl)cc3[nH]c(=S)n(c23)C[C@@H]1C | - | - | - | MT-4 | p24 | EC95 | 0.8 µM
CN(C)C1(c2nc(C(=O)NCc3ccc(F)cc3)c(O)c(=O)[nH]2)CCC1 | - | IIIB | 10% FBS | MT-4 | p24 | EC50 | <0.02 µM
Nc1ncc(CC2(CO)CCC2)c(=O)[nH]1 | - | - | - | MT-4 | - | EC50 | >100 µM
Cc1c(Cc2ccccc2)[nH]c(=O)[nH]c1=O | - | IIIB | - | MT-4 | MTT / virus yield | EC90 | >200 µM
Cc1cc(/C=C/c2ccccc2)cc(C)c1Oc1ccnc(Nc2ccc(C#N)cc2)n1 | - | IIIB | - | MT-4 | MTT | EC50 | 0.026 µM
O=c1ccn([C@@H]2O[C@H](COP(=O)(O)CCl)[C@@H](O)[C@H]2O)c(=O)[nH]1 | - | - | - | H9 | p24 | EC50 | 5.5 µM
CC(C)(C)OC(=O)[C@@H]1CCCN1C[C@@H](O)[C@H](Cc1ccccc1)NC(=O)[C@H](CC(N)=O)NC(=O)c1ccc2ccccc2n1 | - | RF | - | C8166 | p24 | EC50 | 0.11 µM
Nc1ncc2ncn(CC3(OCP(=O)(O)O)CC3)c2n1 | - | NL4-3 | - | HT4 + HeLa | plaque count | EC50 | >100 µM
COC(=O)[C@H](CO)NC(=O)CNC(=O)COc1ccc2ccccc2c1 | - | IIIB | - | MT-4 | cytopathic effect / MTT | EC50 | >58 µg/mL
O=C(NCc1ccc(F)cc1)C1C(=O)N(O)C(=O)c2cc(F)ccc21 | - | - | - | MT-4 | MTT | EC50 | >0.72 µM
CC(C)(C)OC(=O)[C@@H]1CCCN1C[C@@H](O)[C@H](Cc1ccccc1)NC(=O)[C@H](CC(N)=O)NC(=O)OCc1ccccc1 | - | IIIB | - | MT-4 | cytopathic effect / MTT | EC50 | 1.7 µg/mL
COC(c1ccccc1)c1nc(C(=O)NCc2ccc(F)cc2)c(O)c(=O)[nH]1 | - | IIIB | 10% FBS | MT-4 | p24 | EC50 | <2.5 µM
CNC(=O)c1nc([C@]2(C)CSC([C@]3(C)CSC([C@]4(C)CSC(/C=C/c5ccccc5)=N4)=N3)=N2)oc1C | - | - | - | - | - | EC50 | 0.0047 µM
CC(C)(C)NC(=O)[C@@H]1CCCCN1C[C@@H](O)[C@H](Cc1ccccc1)NC(=O)[C@H](CC(N)=O)NC(=O)c1ccc2ccccc2n1 | - | RF | - | C8166 | p24 | EC50 | 0.017 µM
CC(C)=CCN1Cc2cc(Cl)cc3[nH]c(=S)n(c23)C[C@@H]1C | RT-M41L T215Y | HXB2 | - | CEM | syncytia | EC50 | 0.065 µg/mL
COc1cc([C@@H]2c3cc4c(cc3[C@@H](O[C@@H]3O[C@@H]5CO[C@@H](C)O[C@H]5[C@H](O)[C@H]3O)[C@H]3COC(=O)[C@H]23)OCO4)cc(OC)c1O | - | IIIB | - | H9 | p24 | EC50 | 0.03 µM
CCC(Cc1ccccc1)c1cc(O)c(C(c2cccc(NC(=O)[C@H](Cc3cnc[nH]3)NC(=O)OC(C)(C)C)c2)C2CC2)c(=O)o1 | - | IIIB | - | MT-4 | MTT / p24 | EC50 | >3 µM
CCN1CCCCC1c1nc(C(=O)NCc2ccc(F)cc2)c(O)c(=O)[nH]1 | - | IIIB | 50% human serum | MT-4 | p24 | EC50 | <0.5 µM
NC(=S)N/N=C(\c1ccccn1)C12CC3CC(CC(C3)C1)C2 | - | IIIB | - | MT-4 | - | EC50 | 214 µM
Cc1cn([C@H]2C[C@@H](N=[N+]=[N-])[C@@H](CO)O2)c(=O)[nH]c1=O | - | LAI | - | C8166 | p24 / ELISA / antigen | EC50 | 0.00217 µg/mL
CC(C)(C)NC(=O)[C@@H]1C[C@@H]2CCCC[C@@H]2CN1C[C@@H](O)[C@H](Cc1ccccc1)NC(=O)[C@H](CC(N)=O)NC(=O)c1ccc2ccccc2n1 | - | NDK | - | MOLT-4 | cytopathic effect | EC50 | <1 µg/mL
Cc1cc2c(c(-c3cc(C)cc4c3OP(=O)(OC[C@@H]3C=C[C@H](n5cc(C)c(=O)[nH]c5=O)O3)OC4)c1)OP(=O)(OC[C@@H]1C=C[C@H](n3cc(C)c(=O)[nH]c3=O)O1)OC2 | - | - | - | CEM/0 (wild type) | cytopathic effect / syncytia | EC50 | 0.37 µM
CCC(Cc1ccccc1)c1cc(O)c(C(c2cccc(NC(=O)Cc3ccncc3)c2)C2CC2)c(=O)o1 | - | IIIB | - | MT-4 | MTT / p24 | EC50 | >3 µM
COC(=O)CNC(=O)[C@H](C)NC(=O)COc1ccc2ccccc2c1 | - | IIIB | - | MT-4 | cytopathic effect / MTT | EC50 | >79 µg/mL
COc1ccc(CCNC(=O)C2C(=O)N(O)C(=O)c3ccccc32)cc1OC | - | - | - | MT-4 | MTT | EC50 | >70.77 µM
O=C(O)C1=CC(=C(c2ccc(O)c(C(=O)O)c2)c2ccc(O)c(C(=O)O)c2)C=CC1=O | - | GBB | - | JM | p24 | EC50 | 0.5 µg/mL
CC(C)Nc1cccnc1N1CCN(C(=O)c2cc3cc(NS(C)(=O)=O)ccc3[nH]2)CC1 | RES056 | IIIB | - | MT-4 | MTT | EC50 | >37.02 µM
Cc1cccc(C)c1OCC(=O)N[C@@H](Cc1ccccc1)[C@H](O)CN1CC[C@@H](Sc2ccncc2)C[C@H]1C(=O)NC(C)(C)C | - | - | - | - | - | EC50 | 0.002 µM
Fc1cccc(F)c1C1SCc2nc3ccccc3n21 | RT-K103N | IIIB | - | CEM | cytopathic effect / MTT | EC50 | 15.6 µM
NC(=O)P(=O)(O)OC[C@H]1O[C@@H](n2cnc3c(=O)[nH]c(N)nc32)[C@H](O)[C@@H]1O | - | - | - | H9 | p24 | EC50 | 5.5 µM
CC(C)(C)NC(=O)[C@@H]1CCCN1C[C@@H](O)[C@H](Cc1ccccc1)NC(=O)[C@H](CC(N)=O)NC(=O)OCc1ccccc1 | - | RF | - | C8166 | p24 | EC50 | 0.4 µM
COC(=O)CNC(=O)[C@H](CCSC)NC(=O)COc1ccc2ccccc2c1 | - | IIIB | - | MT-4 | cytopathic effect / MTT | EC50 | >100 µg/mL
Cc1ccnc2c1NC(=O)c1cccnc1N2C1CC1 | RT-E89G | - | - | PBMC | p24 | EC50 | 0.44 µM
COC(=O)CNC(=O)[C@H](CO)NC(=O)COc1ccc2ccccc2c1 | - | IIIB | - | MT-4 | cytopathic effect / MTT | EC50 | >100 µg/mL
Nc1ncnc2c(CC3(CO)CCC3)c[nH]c12 | - | - | - | MT-4 | - | EC50 | 87.3 µM
COc1ccc(S(=O)(=O)N(CC(C)C)C[C@@H](O)[C@H](Cc2ccccc2)NC(=O)O[C@H]2CCC[C@H]3O[C@@H]4OCC[C@@H]4[C@@H]23)cc1 | - | ERS104pre | multidrug-resistant | PBMC | - | EC50 | 0.0008 µM
Cc1cn([C@H]2C[C@H](N=[N+]=[N-])[C@@H](CO)O2)c(=O)[nH]c1=O | - | HXB2 | - | CEM | syncytia | EC50 | 0.02 µg/mL
Cc1ccnc2c1NC(=O)c1cccnc1N2C1CC1 | RT-L74V L100I | - | - | MT-4 | - | EC95 | 0.8 µM
O=c1cc(Cc2ccccc2)[nH]c(=O)[nH]1 | - | IIIB | - | MT-4 | MTT / virus yield | EC90 | >200 µM
O=C(NCCCCl)C1C(=O)N(O)C(=O)c2ccccc21 | - | - | - | MT-4 | MTT | EC50 | >0.51 µM
CC(C)(C)c1cc(C(C)(C)C)c(SCCO)c(O)c1O | - | - | - | CEM.SS + MT-4 | MTT | EC50 | 3.67 µg/mL
O=c1ccn([C@H]2CC[C@@H](CO)O2)c(=O)[nH]1 | - | IIIB | - | MT-4 | cytopathic effect / MTT | EC50 | 26 µg/mL
CCc1cn([C@H]2C[C@H](N=[N+]=[N-])[C@@H](CO)O2)c(=O)[nH]c1=O | - | LAV | - | PBMC | RT activity | EC50 | <0.1 µM
Cc1cc(C#Cc2cccc(N)c2)cc(C)c1Oc1ccnc(NC2CCN(c3cccc(C(N)=O)c3)CC2)n1 | F227L + V106A | IIIB | - | MT-4 | MTT | EC50 | >1.063 µM

The last 3 rows once more:

compound,mutations,strain,setting,cells,method,endpoint,result
O=c1ccn([C@H]2CC[C@@H](CO)O2)c(=O)[nH]1,-,IIIB,-,MT-4,cytopathic effect / MTT,EC50,26 µg/mL
CCc1cn([C@H]2C[C@H](N=[N+]=[N-])[C@@H](CO)O2)c(=O)[nH]c1=O,-,LAV,-,PBMC,RT activity,EC50,<0.1 µM
Cc1cc(C#Cc2cccc(N)c2)cc(C)c1Oc1ccnc(NC2CCN(c3cccc(C(N)=O)c3)CC2)n1,F227L + V106A,IIIB,-,MT-4,MTT,EC50,>1.063 µM